Laboratory results published in patent US8673620B2, “Radioresistant alga of the Coccomyxa genus” (priority 2010, dated 2014).

Tests used:
Coccomyxa actinabiotis [1] = test: Maximum metal concentrations bound (BBM medium diluted 10 times); format: cell-based; settings: 6.7×10^−4 mol silver per gram of alga, BBM diluted 10 times
Coccomyxa actinabiotis [2] = test: Kinetics of binding and incorporation of silver by algae with or without mucilage; format: cell-based
Protocol: Two series of experiments were carried out: one with algae having a coating of mucilage, the thickness of which, evaluated by optical microscopy, is about 1 μm or more (“algae with mucilage”), the other with algae cultured in BBM medium and having little or no mucilage (“algae without mucilage”).
20 mg of algae (compacted fresh mass) and 90 ml of solution of Ag^+ at various concentrations are introduced into Erlenmeyer flasks. The 20 mg of algae are prepared as follows: sample taken from a round-bottomed culture flask, centrifugation for 20 minutes at 3000 rpm, washing twice in demineralized water (suspension, centrifugation). The culture medium is thus removed and there is no risk of it complexing the silver.
The algae without mucilage are brought into contact with solutions containing 0.11 mg/L and 5.5 mg/L of Ag^+.
The algae with mucilage are brought into contact with solutions containing 22 μg/L, 1.1 mg/L and 55 mg/L of Ag^+.
The Erlenmeyer flasks are placed on illuminated shakers and samples of 5 ml are taken for various exposure times in order to monitor the binding kinetics for each of the initial concentrations of silver. The samples are centrifuged for 10 minutes at 4500 rpm in order to separate the algae which have concentrated the metal. The metal content is then analyzed in the pellet (algae) and in the supernatant.

[Ag] [silver]
silver bound per gram of fresh mass (Coccomyxa actinabiotis [1]): up to 43.7 mg
silver bound, dry mass (Coccomyxa actinabiotis [1]): approximately 450 mg/g
silver bound at the plateau (Coccomyxa actinabiotis [2]; algae with mucilage, initial concentration 1.1 mg/l): all
silver bound at the plateau (Coccomyxa actinabiotis [2]; algae without mucilage, initial concentration 0.11 mg/l): all
